Anti-infective test results gathered from many reports (values: NIAID ChemDB through PubChem).

Shared fields: tests in culture; agent: Candida albicans

Lines come from different laboratories, so protocols vary. ECn: concentration that inhibits the pathogen or its effect by n%. An empty or dashed field is not shown. A number after MIC or MFC names an inhibition level or a share of isolates.

structure,conditions,read-out,read by,strain,value
C[C@@H](c1ncncc1F)[C@](O)(Cn1cncn1)c1ccc(F)cc1F,pH 4,MIC,broth dilution,10 isolates,2 µg/mL
CCCS(=O)c1nnc(Cc2cc([N+](=O)[O-])ccc2-c2ncc[nH]2)s1,-,MIC,-,ATCC 10231,25 µg/mL
N=C(N)c1ccc(OCCCCCOc2ccc(C(=N)N)cc2)cc1,-,MIC,-,ATCC 10231,100 µg/mL
Cn1cc[nH]c1=S,-,MIC,-,-,>200 µg/mL
CNc1ccc(C(=O)CC(O)CCC(C)C2OC(=O)CC(O)CC(=O)CC(O)CC(O)CC(O)CC(O)CC3(O)CC(O)C(C(=O)N4CCN(CCO)CC4)C(CC(O[C@@H]4O[C@H](C)[C@@H](O)[C@H](NC(=O)CN5CCN(C)CC5)[C@@H]4O)/C=C/C=C/C=C/C=C\C=C/C=C/C=C/C2C)O3)cc1,-,MIC,-,73,0.03 µg/mL
c1ccc(C(c2ccccc2)(c2ccccc2)n2ccnc2)cc1,-,MIC,-,-,0.5 µM
Cc1ccc(-c2cc(-c3ccc(Cl)cc3)nc(/N=C3\C(=O)N(CN4CCCCC4)c4ccc(Br)cc43)n2)cc1,-,MIC,-,-,19.53 µg/mL
CNc1ccc(C(=O)CC(O)CCC(C)C2OC(=O)CC(O)CC(=O)CC(O)CC(O)CC(O)CC(O)CC3(O)CC(O)C(C(=O)N4CCN(CCO)CC4)C(CC(O[C@@H]4O[C@H](C)[C@@H](O)[C@H](NC(=O)CN(C)C)[C@@H]4O)/C=C/C=C/C=C/C=C\C=C/C=C/C=C/C2C)O3)cc1,-,MIC,-,73,0.015 µg/mL
Cc1ccc(-c2cc(-c3ccc(Cl)cc3)nc(/N=C3\C(=O)N(CN4CCOCC4)c4ccc(Cl)cc43)n2)cc1,-,MIC,-,-,78.12 µg/mL
Cn1c([N+](=O)[O-])cnc1S(C)(=O)=O,-,MIC,-,-,>200 µg/mL
CC(=O)N[C@H]1C(O[C@H]2CC[C@@]3(C)C(CC[C@]4(C)C3CC=C3[C@]5(C)CC(C)(C)CC[C@]5(C(=O)O)CC[C@]34C)C2(C)C)O[C@H](CO[C@@H]2OC[C@H](O)[C@H](O)[C@H]2OC2OC[C@H](O)[C@H](O)[C@H]2O)[C@@H](O)[C@@H]1O,-,MIC,-,-,12.5 µg/mL
CC(C)C(N)CCC(C)C1CCC2C3CC=C4C[C@@H](O)CCC4(C)C3CCC12C,-,MIC90,-,A.10231,0.78 µg/mL
CC[C@@H]([C@H](C)O)n1ncn(-c2ccc(N3CCN(c4ccc(OC[C@@H]5CO[C@@](Cn6cncn6)(c6ccc(F)cc6F)C5)cc4)CC3)cc2)c1=O,pH 5,EC90,broth dilution,10 isolates,0.25 µg/mL
CCSc1nnc(-c2ccccc2[N+](=O)[O-])s1,-,MIC,-,ATCC 10231,>100 µg/mL
CNc1ccc(C(=O)CC(O)CCC(C)C2OC(=O)CC(O)CC(=O)CC(O)CC(O)CC(O)CC(O)CC3(O)CC(O)C(C(=O)O)C(CC(O[C@@H]4O[C@H](C)[C@@H](O)[C@H](N)[C@@H]4O)/C=C/C=C/C=C/C=C\C=C/C=C/C=C/C2C)O3)cc1,-,MIC,-,73,0.03 µg/mL
CCCCCCCCOc1ccc(-c2ccc(C(=O)NC3CC(NCCN)CNC(=O)[C@@H]4[C@@H](O)[C@@H](C)CN4C(=O)[C@@H](CO)NC(=O)[C@H]([C@H](O)Cc4ccccc4)NC(=O)[C@@H]4C[C@@H](O)CN4C(=O)[C@H]([C@@H](C)O)NC3=O)cc2)cc1,-,MIC50,-,30 isolates fluconazole-susceptible,0.125 µg/mL
Cc1ccc(-c2cc(-c3ccc(Cl)cc3)nc(/N=C3\C(=O)N(CN4CCCCC4)c4ccc(Cl)cc43)n2)cc1,-,MIC,-,-,78.12 µg/mL
O=S1c2ccccc2SN1C1CC1,-,MIC,-,38247,50 µg/mL
CC(C)C(CCC(C)C1CCC2C3CC=C4C[C@@H](O)CCC4(C)C3CCC12C)NS(=O)(=O)O,-,MIC90,-,A.10231,3.13 µg/mL
CNc1ccc(C(=O)CC(O)CCC(C)C2OC(=O)CC(O)CC(=O)CC(O)CC(O)CC(O)CC(O)CC3(O)CC(O)C(C(=O)N4CCN(C)CC4)C(CC(O[C@@H]4O[C@H](C)[C@@H](O)[C@H](NC(=O)CN5CCN(CCO)CC5)[C@@H]4O)/C=C/C=C/C=C/C=C\C=C/C=C/C=C/C2C)O3)cc1,-,MIC,-,200,0.03 µg/mL
COCCOCCOCCOCCOCCOCCNC(=O)[C@H]1[C@@H]2C[C@@H](O[C@@H]3O[C@H](C)[C@@H](O)[C@H](N)[C@@H]3O)/C=C/C=C/C=C/C=C/C=C/C=C/C=C/[C@H](C)[C@@H](O)[C@H](C)[C@H](C)OC(=O)C[C@H](O)C[C@H](O)[C@@H](O)CC[C@H](O)C[C@H](O)C[C@](O)(C[C@@H]1O)O2,-,MIC,-,Isolate 92-343,3.03 µg/mL
Cc1ccc(-c2cc(-c3ccc(Cl)cc3)nc(/N=C3\C(=O)N(CN4CCCCC4)c4ccccc43)n2)cc1,-,MIC,-,-,78.12 µg/mL
C[C@H]1[C@H](O)[C@@H](C)/C=C/C=C/C=C/C=C/C=C/C=C/C=C/[C@H](O[C@@H]2O[C@H](C)[C@@H](O)[C@H](N)[C@@H]2O)C[C@@H]2O[C@](O)(C[C@@H](O)C[C@@H](O)CC[C@H](O)[C@@H](O)C[C@@H](O)CC(=O)O[C@H]1C)C[C@H](O)[C@H]2C(=O)O,-,MIC,-,73,0.96 µg/mL
CCCSc1nnc(Cc2cc([N+](=O)[O-])ccc2-c2ncc[nH]2)s1,-,MIC,-,ATCC 10231,>100 µg/mL
Clc1ccc(COC(Cn2ccnc2)c2ccc(Cl)cc2Cl)c(Cl)c1,pH 5,EC90,broth dilution,10 isolates,1 µg/mL
Cn1c([N+](=O)[O-])cnc1S(C)=O,-,MIC,-,-,>200 µg/mL
CC[C@H](C)[C@H](N)C(=O)NS(=O)(=O)OC[C@H]1O[C@@H](CCn2nnc(Cc3ccc(Oc4ccccc4)cc3)n2)[C@H](O)[C@@H]1O,-,MIC,-,ATCC 10231,>500 µg/mL
Cn1ccnc1S(C)(=O)=O,-,MIC,-,-,>200 µg/mL
N=C(N)c1ccc2nc(-c3ccc(-c4nc5ccc(C(=N)N)cc5[nH]4)[nH]3)[nH]c2c1,-,MFC,-,Isolate CA1548,0.78 µg/mL
COc1ccc(C(c2ccccc2)(c2ccc(OC)cc2)n2cnc3ccccc32)cc1,-,MIC,-,-,1 µM
Cc1ccc(-c2cc(-c3ccc(Cl)cc3)nc(/N=C3\C(=O)N(CN(C)C)c4ccc(Br)cc43)n2)cc1,-,MIC,-,-,39.06 µg/mL
CCS(=O)(=O)c1nnc(Cc2cc([N+](=O)[O-])ccc2-c2ncc[nH]2)s1,-,MIC,-,ATCC 10231,3.12 µg/mL
CC(=O)NNC(=O)NCCCCCCNC(=O)NNC(C)=O,-,MIC,-,-,7.5 µg/mL
Cc1ccc(-c2cc(-c3ccc(Cl)cc3)nc(/N=C3\C(=O)Nc4ccc(Br)cc43)n2)cc1,-,MIC,-,-,39.06 µg/mL
CO[C@H]1/C=C/O[C@@]2(C)Oc3c(C)c(O)c4c(O)c(c(/C=N/N=c5\sc6ccccc6n5C)c(O)c4c3C2=O)NC(=O)/C(C)=C\C=C\[C@H](C)[C@H](O)[C@@H](C)[C@@H](O)[C@@H](C)[C@H](OC(C)=O)[C@@H]1C,-,MIC,-,3147,>100 µg/mL
O=[N+]([O-])/C(Br)=C\c1ccc(Br)o1,-,MIC90,-,31 strains,2.9 µg/mL
CCC(C)CC(C)CCCCCCCCC(=O)N[C@H]1C[C@@H](O)[C@H](NCCN)NC(=O)[C@@H]2[C@@H](O)CCN2C(=O)[C@H]([C@H](O)CCN)NC(=O)[C@H]([C@H](O)[C@@H](O)c2ccc(O)cc2)NC(=O)[C@@H]2C[C@@H](O)CN2C(=O)[C@H]([C@@H](C)O)NC1=O,pH 4,MIC,broth dilution,10 isolates,0.06 µg/mL
CC(C)C(N)CCC(C)C1CC[C@@]2(C)C3=C(CCC12C)C1(C)CC[C@H](O)C(C)(C)C1CC3,-,MIC90,-,A.10231,>100 µg/mL
Fc1ccc(CN(CCn2cncn2)CCn2cncn2)c(F)c1,-,MIC,visual reading / absorbance,ATCC 76615,64 µg/mL
CS(=O)(=O)c1nnc(Cc2cc([N+](=O)[O-])ccc2-c2ncc[nH]2)s1,-,MIC,-,ATCC 10231,0.39 µg/mL
CNc1ccc(C(=O)CC(O)CCC(C)C2OC(=O)CC(O)CC(=O)CC(O)CC(O)CC(O)CC(O)CC3(O)CC(O)C(C(=O)N4CCN(C)CC4)C(CC(O[C@@H]4O[C@H](C)[C@@H](O)[C@H](NC(=O)CCN5CCCCC5)[C@@H]4O)/C=C/C=C/C=C/C=C\C=C/C=C/C=C/C2C)O3)cc1,-,MIC,-,200,0.06 µg/mL
CCCCCCCC/C=C\CCCCCCCC(=O)NCCCN,-,MIC,broth dilution,ATCC 18804,128 µg/mL

For reference, 2 entries again:

structure | conditions | read-out | read by | strain | value
CC(=O)NNC(=O)NCCCCCCNC(=O)NNC(C)=O | - | MIC | - | - | 7.5 µg/mL
CNc1ccc(C(=O)CC(O)CCC(C)C2OC(=O)CC(O)CC(=O)CC(O)CC(O)CC(O)CC(O)CC3(O)CC(O)C(C(=O)N4CCN(C)CC4)C(CC(O[C@@H]4O[C@H](C)[C@@H](O)[C@H](NC(=O)CCN5CCCCC5)[C@@H]4O)/C=C/C=C/C=C/C=C\C=C/C=C/C=C/C2C)O3)cc1 | - | MIC | - | 200 | 0.06 µg/mL